Consider two substances from PMC11856660 (2025).

Bounds are passed on as bounds.

Assay [1] addresses HCoV-229E nsp15 protein, G248V mutant (recombinant, hexameric) (human coronavirus 229E (HCoV-229E)). Briefly: dynamic light scattering.
Assay [2] has as its target HCoV-229E nsp15 protein, H250Y mutant (recombinant, hexameric) (human coronavirus 229E (HCoV-229E)). Nature of the assay: dynamic light scattering.

“HCoV-229E nsp15 protein, G248V mutant (recombinant, hexameric) (enzyme)”: in assay [1], the percent hexameric is above 98% and the stoichiometry N – broadly, a count of units in the complex or per binding partner – was found to be 6.
Consider “HCoV-229E nsp15 protein, H250Y mutant (recombinant, hexameric) (enzyme)”, for which, in assay [2], the percent hexameric was above 98% and the stoichiometry N was 6.
